A mixed list of measured activities; the numbers were collected in NIAID ChemDB.

Shared fields: tests in culture; organism: HIV-1; cell line: CEM; measure: EC50

Conditions beyond the fields shown may differ between rows. An empty or dashed field is not shown. ECn: concentration that inhibits the pathogen or its effect by n%.

smiles | strain | changes | method | value
CC(=O)Nc1nc(C)c(S(=O)(=O)N(CC2CCCC2)C[C@@H](O)CN(CCc2ccccc2)C(=O)c2ccccc2)s1 | IIIB | - | p24 | <1 µM
C=CCOC(=O)N[C@@H](Cc1ccccc1)[C@H](O)CN(CC1CCCC1)S(=O)(=O)c1ccc2c(c1)CCN2C(C)=O | IIIB | - | p24 | <0.101 µM
COc1ccc(C(=O)CSc2cc(Cl)c(C)cc2S(=O)(=O)n2cccc2)cc1 | - | - | cytopathic effect / XTT | >200 µM
CCOCn1c(Sc2ccccc2)c(CC)c(=O)[nH]c1=O | IIIB | Nevirapine resistant (RT Y181C) | syncytia | 0.65 µM
CC(C)(C)NC(=O)[C@@H]1CN(Cc2cccnc2)CCN1C[C@H](O)[C@@H](CSc1ccccc1)NC(=O)c1cccc2ncccc12 | SN 123 | - | cytopathic effect / XTT | 0.149 µM
Cc1cc(S(=O)(=O)n2cccc2)c(SC(C(=O)O)c2ccccc2)cc1Cl | - | - | cytopathic effect / XTT | >200 µM
COc1ccc(S(=O)(=O)N(CC(O)CN(Cc2ccccc2)C(=O)OC2COCOC2)CC2CCCC2)cc1 | IIIB | - | p24 | <1 µM
CCc1c(Cc2cc(C)cc(C)c2)n(COCCO)c(=O)[nH]c1=O | IIIB | RT-Y181C | syncytia | 1.3 µM
Cc1c(O)cccc1C(=O)N[C@@H](CSc1ccccc1)[C@H](O)CN1C[C@H]2SCC[C@H]2C[C@H]1C(=O)NC(C)(C)C | SN 123 | - | cytopathic effect / XTT | 0.004 µM
CCOCn1c(Sc2cc(C)cc(C)c2)c(CC)c(=O)[nH]c1=S | IIIB TIBO R82913-resistant (RT K103N) | RT-K103N | syncytia | 0.11 µM
CO[C@H]1[C@H]2O[Si](C(C)C)(C(C)C)O[Si](C(C)C)(C(C)C)OC[C@@H]2O[C@@H]1c1ccccc1 | IIIB | - | cytopathic effect | >4 µg/mL
NC(=O)C[C@H](NC(=O)c1ccc2ccccc2n1)C(=O)N[C@@H](Cc1ccccc1)[C@H](O)CN(Cc1ccccc1)S(=O)(=O)c1ccccc1 | IIIB | - | p24 | <1.001 µM
COc1ccc(S(=O)(=O)N(CCC(O)CN(CC(C)C)S(=O)(=O)c2ccccc2)CC2CCCC2)cc1 | IIIB | - | p24 | <1 µM
Nc1nc(N)c2nn(C[C@@H](CF)OCP(=O)(O)O)nc2n1 | IIIB | - | syncytia | 50 µg/mL
COc1ccc(S(=O)(=O)N(CC(C)C)C[C@@H](O)CCN(CC2CCCC2)S(=O)(=O)C2CCCCC2)cc1 | IIIB | - | p24 | <1 µM
COc1nc(Cl)nc2c1ncn2[C@@H]1O[C@H](CO)[C@H]2CC=CC[C@H]21 | LAI | - | - | >100 µM
CCOC(=O)N[C@@H](Cc1ccccc1)[C@H](O)CN(CC1CCCC1)S(=O)(=O)c1ccc(F)cc1 | IIIB | - | p24 | <0.101 µM
COc1ccc(S(=O)(=O)N(CC(C)C)CC(F)(F)C(=O)[C@@H](Cc2ccccc2)NC(=O)O[C@H]2CCOC2)cc1 | IIIB | - | p24 | <1 µM
CCc1c(Sc2ccccc2)n(COCc2ccccc2)c(=O)[nH]c1=O | IIIB | Nevirapine resistant (RT Y181C) | syncytia | 0.12 µM
CC(C)(C)C1=NC(c2ccccc2)(C(F)(F)F)NC(=O)N1 | HXB2 | - | p24 / ELISA | 0.2829 µM
CC(C)(C)NC(=O)[C@@H]1C[C@@H]2CCCC[C@@H]2CN1C[C@@H](O)[C@H](Cc1ccccc1)NC(=O)c1cccnc1Cl | IIIB | - | cytopathic effect / MTT | 1.48 µg/mL
Cc1cc(C)cc(Cc2c(C(C)C)c(=O)[nH]c(=O)n2COCCO)c1 | IIIB TIBO R82913-resistant (RT K103N) | RT-K103N | syncytia | ≥10 µM
OC1COC(O)C(O)C1O.OCC1OC(O)C(O)C(O)C1O.OCC1OC(O)C(O)C(O)C1O.OCC1OC(O)C(O)C(O)C1O | N1T | - | p24 / ELISA | <30 µg/mL
COc1cc(C(=O)Sc2ccccc2C(=O)N[C@@H](C)C(N)=O)cc(OC)c1OC | RF | - | XTT | 2.1 µM
CCOCn1c(Cc2cc(C)cc(C)c2)c(CC)c(=O)[nH]c1=O | IIIB | Nevirapine resistant (RT Y181C) | syncytia | 0.06 µM
CC[Si]1(C(C)C)O[C@H]2[C@@H](O)[C@H](c3ccccc3)O[C@@H]2CO[Si](C(C)C)(C(C)C)O1 | IIIB | - | cytopathic effect | >4 µg/mL
O=C(N[C@@H](Cc1ccccc1)[C@H](O)CN(CC1CCCC1)S(=O)(=O)c1ccc(Cl)cc1)OCc1cccnc1 | IIIB | - | p24 | <0.101 µM
CCCCCCCCCC[N+](C)(C)CCCNCc1c(O)cc2c(c1O)-c1cc(ccc1O)[C@H]1NC(=O)[C@@H]3NC(=O)C4NC(=O)[C@@H](Cc5ccc(c(Cl)c5)Oc5cc3cc(c5O)Oc3ccc(cc3Cl)[C@@H](O)[C@H](NC1=O)C(=O)N[C@@H]2C(=O)O)NC(=O)[C@H](N)c1ccc(O)c(c1)Oc1cc(O)cc4c1 | MN | - | syncytia | 6.5 µM
O=[N+]([O-])c1ccc(/C=N/Nc2ccnc3c(C(F)(F)F)cc(Cl)cc23)o1 | IIIB | - | cytopathic effect / MTT | 0.0165 µg/mL
CCOCn1c(Sc2ccccc2)c(CC)c(=O)[nH]c1=S | IIIB | RT-Y181I | syncytia | 3.1 µM
CC(C)(C)NC(=O)[C@@H]1C[C@@H]2CCCC[C@@H]2CN1C[C@H](O)[C@H](Cc1ccccc1)NC(=O)c1cccc(Cl)c1Cl | IIIB | - | cytopathic effect / MTT | 1.895 µg/mL
O=c1[nH]c(=O)n([C@H]2O[C@H](CO)[C@H]3CC=CC[C@H]32)cc1/C=C/Br | LAI | - | - | 34.2 µM
Cc1cc(S(=O)(=O)n2cccc2)c(SCC(=O)c2ccc(Br)cc2)cc1Cl | - | - | cytopathic effect / XTT | >200 µM
O=c1[nH]cnc2c1ncn2[C@@H]1O[C@H](CO)[C@H]2CC=CC[C@H]21 | LAI | - | - | 20.1 µM
Cc1c(NS(C)(=O)=O)cccc1C(=O)N[C@@H](Cc1ccccc1)[C@@H](O)CN1C[C@H]2CCCC[C@H]2C[C@H]1C(=O)NC(C)(C)C | IIIB | - | cytopathic effect / MTT | 2.08 µg/mL
O=C(N[C@@H](Cc1ccccc1)[C@H](O)CN(CC1CCCC1)S(=O)(=O)c1ccc([N+](=O)[O-])cc1)O[C@@H]1CCOC1 | IIIB | - | p24 | <0.101 µM